Compound potency records, mixed from different reports. Data source: NIAID ChemDB in PubChem.

All rows: whole-cell or culture tests; organism: Rhinovirus

A number after MIC or MFC names an inhibition level or a share of isolates. ECn is the concentration giving n% inhibition of infection, replication or growth. Blank or dashed fields: not listed here. Rows are shuffled and stem from different studies.

structure	method	strain	read-out	cell line	value
CCCc1nc2ccc(OCCC3CCN(c4ccc(C)nn4)CC3)cc2o1	cytopathic effect	Serotype 2	EC50	MRC-5	0.075 µg/mL
CCCn1c2ccccc2c2nnc(SC)nc21	plaque count	1059	EC50	WI-38	20 µg/mL
CSc1nsc(-c2ccc(OCCCCOc3ccc([N+](=O)[O-])cc3)cc2)c1C#N	cytopathic effect	Serotype 42 (group A)	EC50	HELA-OHIO	>0.5 µM
CS(=O)(=O)c1ccc(Oc2ccc(C(=O)c3ccccc3)cc2)nc1	cytopathic effect	TYPE 64	EC50	HeLa	2.5 µg/mL
Cc1cc(CCCOc2c(Cl)cc(C3=NCCO3)cc2Cl)on1	plaque count	Serotype 1	EC50	-	0.17 µg/mL
CSc1nsc(-c2ccc(OCCOc3ccc(C#N)cc3)cc2)c1C#N	cytopathic effect	Serotype 86 (group A)	EC50	HELA-OHIO	>2 µM
Cc1cc(CCCOc2c(C)cc(-n3nnc(C)n3)cc2C)on1	plaque count	Serotype 14	EC50	-	0.12 µg/mL
C#CCOc1cc(OC)ccc1-c1cc(N(CC)CC)no1	cytopathic effect	Serotype 85 (group B)	EC50	HeLa	>40 µM
CC(=O)NCCCNc1nnc2c3ccccc3n(C)c2n1	plaque count	1059	EC50	WI-38	10 µg/mL
CCS(=O)(=O)c1cccnc1Oc1ccc(C(=O)c2ccccc2)cc1	cytopathic effect	TYPE 1A	EC50	HeLa	>10 µg/mL
Cn1c2ccccc2c2nnc(NCCC(C)(C)O)nc21	plaque count	2060	EC50	WI-38	50 µg/mL
CCc1nc(-c2cc(C)c(OCCCc3cc(COC)no3)c(C)c2)no1	cytopathic effect	Serotype 89	EC50	HeLa	0.004 µg/mL
Cn1c2ccccc2c2nnc(NCCCCCO)nc21	plaque count	1059	EC50	WI-38	45 µg/mL
N=C(N)c1ccc2c(c1)CCC(c1ccccc1)O2	plaque count	Serotype 1B	EC50	HeLa	8 µM
Cc1c(-c2ccccc2)n(-c2ccc(F)cc2)c2ccc(C(C)C)cc2c1=O	cytopathic effect	TYPE 2/ HGP	EC50	HELA-OHIO	0.038 µg/mL
CCOc1ccc(-c2cc(N(CC)CC)no2)c(O)c1	cytopathic effect	Serotype 14	EC50	HeLa	>362 µM
CCn1c2c(c(=O)c3cc(C(C)C)ccc31)Cc1ccccc1-2	cytopathic effect	TYPE 1A/E28	EC50	HELA-OHIO	2.6 µg/mL
Fc1cccc(Cn2cnc3c(Nc4cccc(F)c4)nc(C(F)(F)F)nc32)c1	plaque count	Serotype 16	EC50	M-HELA	1.4 µM
CCOc1cc(OC)ccc1-c1cc(N(CC)CC)no1	cytopathic effect	Serotype 14	EC50	HeLa	>90 µM
N#Cc1ccc(C2CCc3ccccc3O2)cc1	plaque count	Serotype 1B	EC50	HeLa	2.88 µM
CSc1nsc(-c2ccc(OCCCc3ccccc3)cc2)c1C#N	cytopathic effect	Serotype 29 (group B)	EC50	HELA-OHIO	>20 µM
Cc1cc(CCCCCOc2ccc(-c3ncon3)cc2)on1	-	serotype 2 1A 1B 6 14 21 22 15 25 30 50 67 89 86 41	MIC80	-	2.56 µg/mL
COCCCNc1nnc2c3ccccc3n(C)c2n1	plaque count	1059	EC50	WI-38	20 µg/mL
CCOC(=O)c1ccc(OCCC2CCN(c3ccc(C)nn3)CC2)cc1	neutral red	121564 (ICAM-1 receptor group 86)	EC50	KB	0.081 µM
COCc1cc(CCCOc2c(Cl)cc(-c3noc(C)n3)cc2Cl)on1	cytopathic effect	Serotype 14	EC50	HeLa	0.036 µg/mL
N=C(N)c1ccc2c(c1)C=C(c1ccccc1)CO2	cytopathic effect	Serotype 1B	EC25	HeLa	40 µM
CSc1nsc(-c2ccc(OCCc3ccccc3)cc2)c1C#N	cytopathic effect	Serotype 51 (group B)	EC50	HELA-OHIO	>20 µM
CCc1nc2ccc(OCCC3CCN(c4ccc(C)nn4)CC3)cc2o1	cytopathic effect	Serotype 2	EC50	MRC-5	0.144 µg/mL
COc1ccc(-c2cc(N3CCCC3)no2)c(O)c1	cytopathic effect	Serotype 70 (group A)	EC50	HeLa	>384 µM
Cc1nc(-c2cc(C)c(OCCCc3cc(C4CC4)no3)c(C)c2)no1	cytopathic effect	Serotype 89	EC50	HeLa	0.007 µg/mL
CCOc1noc2cc(OCCC3CCN(c4ccc(C)nn4)CC3)ccc12	cytopathic effect	Serotype 14	EC50	MRC-5	0.005 µg/mL
Cc1cc(CCCCCOc2cc(Cl)c(-c3nnc(C)o3)c(Cl)c2)on1	-	Serotype 1A	MIC80	-	0.44 µg/mL
CCOc1nc2ccc(OCCC3CCN(c4nnnn4C)CC3)cc2o1	cytopathic effect	Serotype 14	EC50	MRC-5	0.25 µg/mL
Cc1cc(CCCCCOc2cc(Cl)c(-c3nnco3)c(Cl)c2)on1	-	serotype 2 1A 1B 6 14 21 22 15 25 30 50 67 89 86 41	MIC80	-	0.91 µg/mL
N#Cc1ccc(Cn2cnc3c(Nc4cccc(F)c4)nc(C(F)(F)F)nc32)cc1	plaque count	Serotype 4	EC50	M-HELA	>100 µM
COc1nc2ccc(OCCC3CCN(c4ccc(C)nn4)CC3)cc2s1	cytopathic effect	Serotype 2	EC50	MRC-5	0.024 µg/mL
N#Cc1ccc2c(c1)CCC(c1ccccc1)O2	plaque count	Serotype 1B	EC50	HeLa	0.14 µM
Cn1c2ccccc2c2nnc(NCCCCO)nc21	plaque count	33342	EC50	WI-38	20 µg/mL
CCOC(=O)c1ccc(OCCCCOc2ccc(-c3snc(SC)c3C#N)cc2)cc1	cytopathic effect	Serotype 15 (group B)	EC50	HELA-OHIO	>2 µM
Cc1cc(CCCCCOc2c(Cl)cc(C3=NCCO3)cc2Cl)on1	plaque count	TYPE 6	EC50	HeLa	0.13 µg/mL
CSc1nsc(-c2ccc(OCCCOc3ccc([N+](=O)[O-])cc3)cc2)c1C#N	cytopathic effect	Serotype 2 (group B)	EC50	HELA-OHIO	>1 µM
Cc1c(-c2ccccc2)n(-c2cccc(F)c2)c2ccc(C(C)C)cc2c1=O	cytopathic effect	33/1200	EC50	HELA-OHIO	0.17 µg/mL
CCN(CC)c1cc(-c2ccc(OC)cc2OC)on1	cytopathic effect	Serotype 86 (group A)	EC50	HeLa	>362 µM

For reference, 5 entries again:

{"structure": "CS(=O)(=O)c1ccc(Oc2ccc(C(=O)c3ccccc3)cc2)nc1", "method": "cytopathic effect", "strain": "TYPE 64", "read-out": "EC50", "cell line": "HeLa", "value": "2.5 µg/mL"}
{"structure": "Cc1cc(CCCOc2c(C)cc(-n3nnc(C)n3)cc2C)on1", "method": "plaque count", "strain": "Serotype 14", "read-out": "EC50", "value": "0.12 µg/mL"}
{"structure": "Cn1c2ccccc2c2nnc(NCCCCO)nc21", "method": "plaque count", "strain": "33342", "read-out": "EC50", "cell line": "WI-38", "value": "20 µg/mL"}
{"structure": "Cc1cc(CCCCCOc2ccc(-c3ncon3)cc2)on1", "strain": "serotype 2 1A 1B 6 14 21 22 15 25 30 50 67 89 86 41", "read-out": "MIC80", "value": "2.56 µg/mL"}
{"structure": "Cc1cc(CCCCCOc2c(Cl)cc(C3=NCCO3)cc2Cl)on1", "method": "plaque count", "strain": "TYPE 6", "read-out": "EC50", "cell line": "HeLa", "value": "0.13 µg/mL"}